Anti-infective test results gathered from many reports (values: NIAID ChemDB through PubChem).

All rows: tests in culture; species: HIV-1; read by: MTT; read-out: EC50

Lines come from different laboratories, so protocols vary.

compound,cell line,strain,changes,value
C#Cc1ccc(Nc2nccc(Oc3c(C)cc(-c4cn(Cc5ccc(C(N)=O)cc5)nn4)cc3C)n2)cc1,MT-4,IIIB,K103N,0.068 µM
N#Cc1cc([C@H]2C[C@H](N=[N+]=[N-])[C@@H](CO)O2)cc(=O)[nH]1,MT-4,IIIB,-,>478 µM
CCn1cc(C(=O)O)c(=O)c2cc(Br)c(Oc3ccnc(Nc4ccc(C#N)cc4)n3)cc21,MT-4,IIIB,K103N Y181C NNRTI-resistant,4.54 µM
Nc1nc(N)c2ncn(CCOCP(=O)(O)O)c2n1,MT-4,IIIB,-,2.6 µM
O=C1CCC(c2ccccc2)C(=O)N1CCCN1CCN(c2ccccn2)CC1,MT-4,-,-,>100 µM
C=C1[C@H](CO)[C@@H](O)C[C@@H]1n1cnc2c(=O)[nH]c(N)nc21,MT-4,IIIB,Y181C,0.012 µM
Cc1cc(C#Cc2ccccn2)cc(C)c1Oc1ccnc(Nc2ccc(C#N)cc2)n1,MT-4,IIIB,L100I,≥1.53 µM
O=C(CSc1sc(Cl)nc1-c1ccc(Br)cc1Br)Nc1cccnc1Cl,MT-4,IIIB,L100I,7.68 µM
Cc1ccnc2c1NC(=O)c1cccnc1N2C1CC1,MT-4,IIIB,-,0.03 µM
O=C1Nc2ccc(Cl)cc2[C@@](C#CC2CC2)(C(F)(F)F)O1,MT-4,IIIB,K103N,0.071 µM
Cc1ccnc2c1NC(=O)c1cccnc1N2C1CC1,MT-4,IIIB,-,0.01 µg/mL
COc1cc(NC2=NS(=O)(=O)NC(Cc3ccc4ccccc4c3)=C2)cc(OC)c1OC,MT-4,IIIB,-,>204 µM
Cc1cc(-c2ccc(C#N)cc2)cc(C)c1Oc1ccnc(S(=O)(=O)CC(=O)Nc2ccc(C#N)cc2)n1,MT-4,IIIB,-,0.006 µM
COc1ccc(CCNc2nc(NC(=O)Nc3cccc(C)c3)nc(Oc3cc(=O)oc4ccccc34)n2)cc1OC,MT-4,IIIB,-,>22.45 µg/mL
O=C(CSc1nncnc1-c1ccccc1Cl)Nc1ccccc1Cl,MT-4,RES056,-,>55 µM
Cc1cc(C#Cc2ccccc2)cc(C)c1Oc1ccnc(Nc2ccc(C#N)cc2)n1,MT-4,IIIB,Y188L,1.513 µM
Cc1cc(C)c(NC2=NS(=O)(=O)NC(Cc3ccccc3)=C2)c(C)c1,MT-4,IIIB,-,>191 µM
O=C(NCc1ccc(F)cc1)C1C(=O)N(O)C(=O)c2cc(Cl)ccc21,MT-4,-,-,1.19 µM
Cn1ncc2c1S(=O)(=O)N(CCc1ccc(Cl)cc1Cl)C(=O)N2CCc1ccc(Cl)cc1Cl,MT-4,IIIB,-,>253 µM
O=C(CSc1nncnc1-c1ccccc1Cl)Nc1ccccc1[N+](=O)[O-],MT-4,RES056,-,>11 µM
Nc1ccccc1NC(=O)CSc1sc(Cl)nc1-c1ccc(Br)cc1Br,MT-4,IIIB,-,2.09 µM
O=C(NC(=S)Nc1ccc(Br)cn1)c1ccccc1[N+](=O)[O-],MT-2,ROD,-,>10 µM
Cc1ccc(CNC(=O)C2C(=O)N(O)C(=O)c3ccccc32)cc1,MT-4,-,-,2.54 µM
Cc1cc([N+](=O)[O-])ccc1NC(=O)CSc1sc(Cl)nc1-c1ccc(Br)cc1Br,MT-4,IIIB,-,3.33 µM
Cc1cc(C#Cc2ccccc2)cc(C)c1Oc1ccnc(NC2CCN(Cc3ccc(S(N)(=O)=O)cc3)CC2)n1,MT-4,IIIB,RES056,>0.766 µM
Nc1ncnc2c1ncn2CCOCP(=O)(O)O,MT-4,IIIB,-,5.3 µM
O=C1C=C2CC(C3=C4C(C5C(C6CC7=CC(=O)O[C@@]78C[C@@H]6N6CCCC68)C6=CC(=O)O[C@@]67C[C@@H]5N5CCCC57)=C[C@@H]5C[C@@]4(OC3=O)C3CCCN35)[C@@H]3C[C@@]2(O1)C1CCCN13,MT-4,NL4-3,-,97.3 µM
Cn1ncc2c1S(=O)(=O)N(CCc1ccccc1)C(=O)N2CCc1ccccc1C#N,MT-4,IIIB,-,>265.4 µM
Cc1cc(C#Cc2ccc(C(F)(F)F)cc2)cc(C)c1Oc1ccnc(Nc2ccc(C#N)cc2)n1,MT-4,IIIB,Y181C,>7.353 µM
COc1ccc(CCNc2nc(NC(=S)Nc3ccc(C)cc3)nc(Oc3cc(=O)oc4ccccc34)n2)cc1OC,MT-4,IIIB,-,8.33 µg/mL
CC(C)CN(C[C@@H](O)[C@H](Cc1ccc(F)cc1)NC(=O)O[C@H]1CCO[C@H]2OCC[C@H]21)S(=O)(=O)c1ccc2nc(NC(C)C)sc2c1,MT-2,LAI,-,0.0002 µM
Cc1cc(C#CC2CC2)cc(C)c1Oc1ccnc(Nc2ccc(C#N)cc2)n1,MT-4,IIIB,-,0.007 µM
C=CCNC(=O)C1C(=O)N(O)C(=O)c2ccccc21,MT-4,-,-,>129 µM
C/C=C(/C)C(=O)O[C@@H]1[C@@H](C)[C@@]2(O)[C@@H](C=C(CO)C[C@]3(O)C(=O)C(C)=C[C@@H]23)[C@@H]2C(C)(C)[C@]12OC(C)=O,MT-4,IIIB,-,0.009 µM
COc1ccc(CCNc2nc(NC(=O)Nc3ccc(C)cc3)nc(Oc3cc(=O)oc4ccccc34)n2)cc1OC,MT-4,IIIB,-,>74.98 µg/mL
CCCC(=O)O[C@@]12C[C@@H](C)[C@@]3(O)[C@@H](C=C(COC(C)=O)C[C@]4(O)C(=O)C(C)=C[C@@H]34)[C@@H]1C2(C)C,MT-4,IIIB,-,0.6 µM
COc1ccccc1NC1=NS(=O)(=O)NC(Cc2cccc3ccccc23)=C1,MT-4,IIIB,-,>161 µM
Cn1ncc2c1S(=O)(=O)N(CCc1ccccc1)C(=O)N2CCc1cccc(C#N)c1,MT-4,IIIB,-,>307.1 µM
CCCn1cc(C(=O)O)c(=O)c2cc(Br)c(Oc3ccnc(Nc4ccc(C#N)cc4)n3)cc21,MT-4,IIIB,K103N Y181C NNRTI-resistant,3.15 µM
Nc1nc(-c2ccc(Br)cc2Br)c(SCC(=O)Nc2cccnc2Cl)s1,MT-4,IIIB,-,>45.73 µM
CC(C)n1cc(C(=O)O)c(=O)c2cc(Br)c(Oc3ccnc(Nc4ccc(C#N)cc4)n3)cc21,MT-4,IIIB,-,0.088 µM
C#Cc1ccc(Nc2nccc(Oc3c(C)cc(-c4cn(CC(=O)Nc5ccc(S(C)(=O)=O)cc5)nn4)cc3C)n2)cc1,MT-4,RES056,-,>6.36 µM
N#Cc1ccc(Nc2nccc(Oc3ccc(C(=O)CC(=O)C(=O)O)cc3)n2)cc1,MT-4,IIIB,K103N + Y181C,>48 µM
Cc1cc(C#Cc2cccc(N)c2)cc(C)c1Oc1ccnc(NC2CCN(Cc3cccc(C(N)=O)c3)CC2)n1,MT-4,IIIB,RES056,>0.63 µM
C#Cc1ccc(Nc2nccc(Oc3c(C)cc(-c4cn(Cc5cccc([N+](=O)[O-])c5)nn4)cc3C)n2)cc1,MT-4,IIIB,Y181C,4.44 µM
CCOC(=O)C(=O)CC(=O)c1cccc(Oc2ccnc(Nc3ccc(C#N)cc3)n2)c1,MT-4,RES056,-,>14 µM
Nc1ccn([C@H]2CC[C@@H](CO)O2)c(=O)n1,MT-4,IIIB,-,1.4 µM
Cc1ccc(/C=C/c2cc(C)c(Oc3ccnc(Nc4ccc(C#N)cc4)n3)c(C)c2)cc1,MT-4,IIIB,F227L + V106A,≥2.267 µM
CC(=O)O[C@@]12C[C@@H](C)[C@@]3(O)[C@@H](C=C(CO)C[C@]4(O)C(=O)C(C)=C[C@@H]34)[C@@H]1C2(C)C,MT-4,IIIB,-,0.0009 µM
Cn1ncc2c1S(=O)(=O)N(CCc1ccccc1)C(=O)N2CCc1ccc(C(C)(C)C)cc1,MT-4,IIIB,-,>285.4 µM
Cc1cc(/C=C/C#N)cc(C)c1Oc1ccnc(S(=O)(=O)CC(=O)Nc2ccc(F)cc2)n1,MT-4,-,L100I,0.033 µM
O=C1CCC(c2ccccc2)C(=O)N1CCCCN1CCN(c2ccc(F)cc2)CC1,MT-4,-,-,>54 µM
O=S1(=O)N=C(Nc2cccc(Cl)c2)C=C(Cc2ccccc2)N1,MT-4,IIIB,-,>189 µM
O=C1CCC(c2ccccc2)C(=O)N1,MT-4,-,-,>100 µM
COc1ccc(CCNC(=O)C2C(=O)N(O)C(=O)c3ccccc32)cc1OC,MT-4,-,-,>70.77 µM
CCOc1ccc(NC(=O)Nc2nc(NCCc3ccc(OC)c(OC)c3)nc(Oc3cc(=O)oc4ccccc34)n2)cc1,MT-4,IIIB,-,>30.15 µg/mL
COc1cc(NC(C)CCCN)c2ncccc2c1,MT-4,NL4-3,-,>100 µM
COC(=O)[C@H](C)NP(=O)(OC[C@H]1O[C@@H](n2cc(C)c(=O)[nH]c2=O)CC1N=[N+]=[N-])Oc1ccccc1,MT-4,ROD,-,0.031 µM
C=CCOC(=O)N[C@H]1CCCN(CC(=O)Nc2ccc(N)cc2)C1=O,-,-,-,>125 µg/mL
Cc1cc(C#N)cc(C)c1Oc1nc(Nc2ccc(C#N)cc2)nc(N)c1Br,MT-4,IIIB,-,0.006 µM
Cc1cn([C@H]2C[C@H](N=[N+]=[N-])[C@@H](COP(=O)(O)O)O2)c(=O)[nH]c1=O,CEM + CEM TK-,-,-,10 µM
O=C1C=C2CC(C3=C4CC(C5=C6C(C7C(C8CC9=CC(=O)O[C@@]9%10C[C@@H]8N8CCCC8%10)C8=CC(=O)O[C@@]89C[C@@H]7N7CCCC79)=C[C@@H]7C[C@@]6(OC5=O)C5CCCN57)[C@@H]5C[C@@]4(OC3=O)C3CCCN35)[C@@H]3C[C@@]2(O1)C1CCCN13,MT-4,NL4-3,-,66.6 µM
Cc1ccnc2c1NC(=O)c1cccnc1N2C1CC1,MT-4,IIIB,Y188L,>15.9 µM
Nc1nc(-c2ccc(Br)cc2Br)c(SCC(=O)Nc2ccc(Cl)cc2Cl)s1,MT-4,IIIB,-,>20.73 µM
O=C(CSc1nncnc1-c1ccccc1Cl)Nc1ccccc1F,MT-4,IIIB,-,0.21 µM
O=C(NCCCCl)C1C(=O)N(O)C(=O)c2ccccc21,MT-4,-,-,>0.51 µM
Cc1cn([C@H]2C[C@H](N=[N+]=[N-])[C@@H](CO)O2)c(=O)[nH]c1=O,MT-4,IIIB,-,0.0151 µM
O=C(CSc1nncnc1-c1ccccc1Cl)Nc1ccccc1Br,MT-4,IIIB,-,0.092 µM
COc1c(O)cc([C@H]2Oc3cc(O)cc(O)c3[C@@H](c3c(O)cc(O)c4c3O[C@H](c3cc(O)c(OC)c(O)c3)[C@H](O)C4)[C@@H]2O)cc1O,MT-4,IIIB,-,>7.58 µg/mL
CN(C)c1ccc(NC2=NS(=O)(=O)NC(Cc3ccc4ccccc4c3)=C2)cc1,MT-4,IIIB,-,>33 µM
CC(C)Nc1cccnc1N1CCN(C(=O)c2cc3cc(NS(C)(=O)=O)ccc3[nH]2)CC1,MT-4,IIIB,-,0.035 µM
Cc1ccccc1NC(=O)CSc1sc(Cl)nc1-c1ccc(Br)cc1Br,MT-4,IIIB,-,>26.94 µM
O=C(CSc1nncnc1-c1ccccc1Cl)Nc1cccnc1Cl,MT-4,IIIB,-,0.074 µM
Cc1cc(C#N)cc(C)c1Oc1nc(Nc2ccc(C#N)cc2)nc(N)c1Br,MT-4,IIIB,K103N,0.00184 µM
Cc1ccnc2c1NC(=O)c1cccnc1N2C1CC1,MT-4,K103N,NNRTI-resistant (RT K103N),0.133 µM
CC(C)CN(C[C@@H](O)[C@H](Cc1cc(F)cc(F)c1)NC(=O)O[C@H]1CCO[C@H]2OCC[C@H]21)S(=O)(=O)c1ccc2nc(NC(C)C)sc2c1,MT-2,LAI,-,0.0001 µM

A second listing of 11 rows from above:

compound	cell line	strain	changes	value
CCOC(=O)C(=O)CC(=O)c1cccc(Oc2ccnc(Nc3ccc(C#N)cc3)n2)c1	MT-4	RES056	-	>14 µM
Nc1ccn([C@H]2CC[C@@H](CO)O2)c(=O)n1	MT-4	IIIB	-	1.4 µM
Cc1ccccc1NC(=O)CSc1sc(Cl)nc1-c1ccc(Br)cc1Br	MT-4	IIIB	-	>26.94 µM
Cc1cc(C#Cc2ccccc2)cc(C)c1Oc1ccnc(Nc2ccc(C#N)cc2)n1	MT-4	IIIB	Y188L	1.513 µM
Cc1cn([C@H]2C[C@H](N=[N+]=[N-])[C@@H](COP(=O)(O)O)O2)c(=O)[nH]c1=O	CEM + CEM TK-	-	-	10 µM
O=C1C=C2CC(C3=C4CC(C5=C6C(C7C(C8CC9=CC(=O)O[C@@]9%10C[C@@H]8N8CCCC8%10)C8=CC(=O)O[C@@]89C[C@@H]7N7CCCC79)=C[C@@H]7C[C@@]6(OC5=O)C5CCCN57)[C@@H]5C[C@@]4(OC3=O)C3CCCN35)[C@@H]3C[C@@]2(O1)C1CCCN13	MT-4	NL4-3	-	66.6 µM
COc1cc(NC2=NS(=O)(=O)NC(Cc3ccc4ccccc4c3)=C2)cc(OC)c1OC	MT-4	IIIB	-	>204 µM
COc1c(O)cc([C@H]2Oc3cc(O)cc(O)c3[C@@H](c3c(O)cc(O)c4c3O[C@H](c3cc(O)c(OC)c(O)c3)[C@H](O)C4)[C@@H]2O)cc1O	MT-4	IIIB	-	>7.58 µg/mL
COc1ccc(CCNc2nc(NC(=O)Nc3ccc(C)cc3)nc(Oc3cc(=O)oc4ccccc34)n2)cc1OC	MT-4	IIIB	-	>74.98 µg/mL
Nc1ncnc2c1ncn2CCOCP(=O)(O)O	MT-4	IIIB	-	5.3 µM
Cn1ncc2c1S(=O)(=O)N(CCc1ccccc1)C(=O)N2CCc1cccc(C#N)c1	MT-4	IIIB	-	>307.1 µM

ECn is the concentration giving n% inhibition of infection, replication or growth. An empty or dashed field is not shown.